# Measurements as given in patent publication US20150368668A1 (RUTGERS THE STATE UNIVERSITY OF NEW JERSEY, published 2015).
# B1: GST-mouse CD81 LEL (receptor)
# chain: MSPILGYWKIKGLVQPTRLLLEYLEEKYEEHLYERDEGDKWRNKKFELGLEFPNLPYYIDGDVKLTQSMAIIRYIADKHNMLGGCPKERAEISMLEGAVLDIRYGVSRIAYSKDFETLKVDFLSKLPEMLKMFEDRLCHKTYLNGDHVTHPDFMLYDALDVVLYMDPMCLDAFPKLVCFKKRIEAIPQIDKYLKSSKYIAWPLQGWQATFGGGDHPPKFVNKDQIAKDVKQFYDQALQQAVMDDDANNAKAVVKTFHETLNCCGSNALTTLTTTILRNSLCPSGGNILTPLLQQDCHQKIDELFSGK
# notes: also called GST-mCD81 LEL; mCD81; not shown: carboxy-terminal histidine tag
# Molecular target: T1, eE2-Fc fusion (J6 genotype 2a E2 ectodomain […], thrombin cleavage site, human Fc domain) (Hepatitis C virus J6 (genotype 2a); …)
# T1 construct: Used as HEK293T cell culture supernatant in the CD81-LEL ELISA; also called pPro-eE2-Fc product; wild type eE2-Fc; not shown: thrombin cleavage site; Fc domain of human IgG
# Assay: ELISA, eE2-Fc supernatant on coated GST-mouse CD81 LEL, anti-human Fc-HRP
binder,measurement,value
B1,binding result,no binding
